This assay concerns CD4+ T cells in PBMCs from healthy donors. Nature of the assay: Tetanus Toxoid Bystander Suppression Assay (TTBSA). The class given is cell-based, human. The following applies: free peptide 8, 16, 24 μg/ml; HSA-conjugate 10, 40 and 100 μg/ml (0.25, 1.0, 2.5 μg/ml FV621).

Take “HSA: recombinant human serum albumin, not conjugated to FV621 [reference compound]”: the “inhibition of TT mediated CD4+ T cell proliferation, free peptide vs HSA conjugate” value was “did not have any impact”.
